Tested on: T1, GII.4 2012 variant VLP
T1 construct: gene ORF2
Conditions: ligand as BSA conjugate (about 20 per BSA, multivalent), immobilized; VLP 2 ng/ul; HBS pH 7.4, 25 C; also ELISA (Figure 4A)

Row | Structure (SMILES) | GII.4 variant / 2012
1 | C[C@@H]1O[C@@H](O[C@H]2C(O)O[C@H](CO)[C@H](O)[C@@H]2O[C@H]2O[C@H](CO)[C@H](O)[C@H](O)[C@H]2O)[C@@H](O)[C@H](O)[C@@H]1O (some centres unmarked) [B trisaccharide] | 75 RU
2 | CC(=O)N[C@H]1[C@H](O[C@H]2[C@@H](O)[C@@H](CO)O[C@@H](O[C@H]3[C@H](O)[C@@H](O)C(O)O[C@@H]3CO)[C@@H]2O)O[C@H](CO)[C@@H](O)[C@@H]1O[C@@H]1O[C@H](CO)[C@H](O)[C@H](O)[C@H]1O[C@@H]1O[C@@H](C)[C@@H](O)[C@@H](O)[C@@H]1O (some centres unmarked) [lacto-N-fucopentaose I] | 1,457 RU

— publication PMC9094630, “Epidemiological Impact of GII.17 Human Noroviruses Associated With Attachment to Enterocytes” (Frontiers in Microbiology, 2022)
